Measurements reported in PubChem BioAssay AID1259414 (Drosophila RNAi Screening Center, 2018).
The deposit covers about 24,000 reagents; below is an unselected part of those with a known target gene and a result. Of all reagents, about 1,210 (5%) got an active call. 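Inactive calls also include excluded dsRNAs with several or no targets, genes unexpressed in JW18, and well A1, regardless of score.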 Unmarked entries are inactive. A plus sign joins genes that one reagent is predicted to hit.

- Test: 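Fly genes that alter Wolbachia amount inside host cells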 (primary screen)
- Cells: Drosophila JW18 cells infected with Wolbachia
- Reagents: long dsRNA against Drosophila genes, 0.25 µg dsRNA per well of a 384-well plate
- Time to read-out: 5 days
- Challenge: cells persistently infected with Wolbachia before knock-down; no added drug
- Measurement: 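Imaged fluorescence in situ signal for Wolbachia 23S rRNA per DAPI-counted host cell, given as a robust z-score within each plate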
- Scale: Wolbachia per cell robust z: higher = more Wolbachia per host cell than the plate typical
- Rule for the call: 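Hit when robust z is 1.5 or more, or -1.5 or less, in at least two of three replicates; excludes dsRNAs with several or no targets, genes not expressed in JW18 and well A1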

gene	dsRNA	Wolbachia per cell robust z, rep 1	Wolbachia per cell robust z, rep 2	Wolbachia per cell robust z, rep 3
Cyp9c1	DRSC04607	0.48	-1.82	0.207
Cyp9c1	DRSC41542	0.767	-0.436	1.11
Akt	DRSC14108	-0.229	1.76	-0.242
Akt	DRSC40734	0.528	-2.03	0.675
aqrs	DRSC14724	-0.472	-4.46	-1.06
Gfat1	DRSC21219	1.18	0.633	-0.351
Gfat1	DRSC29612	-1.39	0.692	-0.444
Cyp6a2	DRSC05014	0.479	-0.229	-0.172
Cyp6a2	DRSC24091	1.23	0.492	0.528
CG14340	DRSC00370	0.512	-0.839	0.2
Sgf11	DRSC09987	-0.973	0.234	1.03
Afti	DRSC16440	1.43	0.444	-0.134
Afti	DRSC29272	-0.479	-0.521	0.396
CG4462	DRSC15583	0.641	-4.08	-0.182
CG4462	DRSC25650	0.85	5.03	-0.37
CG2961	DRSC18246	-3.36	-0.234	-1.46
CG2961	DRSC28539	-1.81	-0.977	-2.14
Ced-12	DRSC02840	3.38	1.49	-1.94
Ced-12	DRSC24035	2.01	0.939	0.462
CG5440	DRSC00685	0.435	0.329	-0.0254
CG5440	DRSC29429	-1.43	-0.27	-1.87
EMC2B	DRSC15506	0.0465	0.0345	0.225
Dlic	DRSC19824	-1.06	-0.21	-0.256
CG9044	DRSC03130	0.117	-0.544	-11.4
CG30334	DRSC05345	0.868	0.281	-0.129
CG30334	DRSC24086	-0.649	-1.12	-1.25
ea	DRSC16939	0.901	-0.076	-0.0322
ea	DRSC25595	-1.66	-2	-0.487
Oseg2	DRSC08343	0.543	0.785	0.35
ghi	DRSC08985	-0.179	0.0764	-0.715
CG11630	DRSC03696	1.36	1.16	-1.66
CG15580	DRSC12266	-0.909	0.00176	0.234
CG15580	DRSC24180	-0.4	2.37	-7.3
Sfp24F	DRSC40613	0.325	-2.08	0.0749
mRpL30	DRSC18416	-3.3 (active)	-8.33	-0.0825
mRpL30	DRSC26623	-0.0907	0.306	0.493
hpRNA:CR33940 + CG32212	DRSC09618	-1.75	-0.912	-0.272
t-Grip84	DRSC10904	0.406	0.149	1.31
eIF4G1	DRSC17218	-0.102	-0.75	0.0683
eIF4G1	DRSC29786	1.77	1.26	0.675
Pdp1	DRSC08896	2.69 (active)	3.96	2.27
Pdp1	DRSC08897	3.66 (active)	3.36	3.75
Pdp1	DRSC11251	0.139	-0.185	0.383
Pdp1	DRSC22973	-2.88	0.114	-1.03
brv2	DRSC10226	0.91	1.24	2.68
brv2	DRSC29796	0.576	0.399	-0.201
